A mixed list of measured activities; the numbers were collected in NIAID ChemDB.

All rows: whole-cell or culture tests; agent: HIV-1; method: RT activity; endpoint: EC50

Blank or dashed fields: not listed here. ECn is the concentration giving n% inhibition of infection, replication or growth. Neighbouring rows are from separate reports.

SMILES	changes	setting	strain	cell line	value
CCCc1cc(=O)oc2c3c(c4c(c12)OC(C)(C)C=C4)O[C@@H](C)[C@H](C)[C@@H]3O			WEJO	PBMC	0.2 µM
C[C@H](Cn1cnc2c(N)ncnc21)OCP(=O)(O)O			LAI	PBMC	1.6 µM
CC(C)(C)NC(=O)[C@@H]1CN(Cc2cccnc2)CCN1C[C@@H](O)C[C@@H](Cc1ccccc1)C(=O)N[C@H]1c2ccccc2C[C@H]1O			LAI	PBL	0.018 µM
CC(=O)N[C@H](C(=O)N[C@@H](Cc1ccccc1)[C@@H](O)CN(CC1CCCCC1)NC(=O)[C@@H](NC(C)=O)C(C)C)C(C)C			LAV	MT-2	<1 µM
Clc1ccc(Cn2c(Br)nc3cc(Cl)c(Cl)cc32)cc1Cl			IIIB	CEM + CEM-SS	>100 µM
Cc1ccnc2c1NC(=O)c1cccnc1N2C1CC1			CLADE B	PBMC	0.07 µM
CC(=O)SCCOP(=O)(OCCSC(C)=O)OC[C@@H]1CC[C@H](n2cnc3c(=O)[nH]cnc32)O1			LAI	CEM + CEM TK-	0.3 µM
Cc1cn([C@H]2C[C@H](N=[N+]=[N-])[C@@H](CO)O2)c(=O)[nH]c1=O			LAV	PBMC	0.0039 µM
CC(=O)SCCOP(=O)(OCCSC(C)=O)OC[C@@H]1CC[C@H](n2ccc(=O)[nH]c2=O)O1			LAI	MT-4	2 µM
Nc1nc2c(ncn2[C@H]2C=C[C@@H](CO)C2)c(=O)[nH]1			LAI	PBMC	0.08 µM
CC(=O)SCCOP(=O)(OCCSC(C)=O)OC[C@@H]1CC[C@H](n2cnc3c(N)ncnc32)O1			LAI	MT-4	0.011 µM
Cc1cn([C@@H]2C[C@@H](N=[N+]=[N-])[C@H](COP(=O)(O)OC[C@H]3O[C@@H](n4cc(C)c(=O)[nH]c4=O)C[C@@H]3N=[N+]=[N-])O2)c(=O)[nH]c1=O			LAV	PBMC	0.01 µM
CCCCCCCCOC(=O)P(=O)(OC[C@H]1O[C@@H](n2cc(C)c(=O)[nH]c2=O)C[C@@H]1N=[N+]=[N-])OC[C@H]1O[C@@H](n2cc(C)c(=O)[nH]c2=O)C[C@@H]1N=[N+]=[N-]			LAI	CEM + CEM-SS	0.003 µM
Nc1nc2c(ncn2[C@H]2CO[C@@H](CO)O2)c(=O)[nH]1			LAI	PBMC	0.3 µM
CCc1nc2ccccn2c1C(=O)c1ccccc1			LAI	CEM + CEM-SS	41 µM
c1cc(CN2CCCNCCNCCCNCC2)ccc1CN1CCCNCCNCCCNCC1			LAI	MT-2	0.005 µM
O=c1[nH]cnc2c1ncn2[C@H]1CC[C@@H](CO)O1			LAI	MT-4	11 µM
Cc1cn([C@H]2C[C@H](N=[N+]=[N-])[C@@H](CO)O2)c(=O)[nH]c1=O			xxBRU WT	PBMC	<0.01 µM
CCOC(=O)P(=O)(OCc1ccc(Cl)cc1)OCc1ccc(Cl)cc1			LAI	CEM + CEM TK-	>10 µM
CCc1nc2ccccn2c1C(=O)c1cccc(O)c1			IIIB	MT-4	>5 µM
Cc1cn([C@H]2C[C@H](N=[N+]=[N-])[C@@H](COP(=O)(OCCC#N)OC[C@@H]3CC[C@H](n4cnc5c(N)ncnc54)O3)O2)c(=O)[nH]c1=O			LAV	PBMC	0.00015 µM
O=C1CCN(CCOc2ccc(Cl)cc2C(=O)c2cc(Cl)cc(Cl)c2)C(=O)N1	Y181C	pseudotyped			0.75 µM
C[C@]12CCC(=O)C=C1CC[C@@H]1[C@@H]2[C@@H](O)C[C@@]2(C)[C@H]1CC[C@]2(O)C(=O)COP(=O)(O)O			BRU	PBMC	>5 µg/mL
Nc1ccn([C@@H]2C=C(F)[C@H](CO)S2)c(=O)n1			xxBRU WT	PBMC	<1.7 µM
O=c1[nH]cnc2c1ncn2[C@H]1CC[C@@H](CO)O1			LAI	MT-2	0.652 µM
Cc1cn([C@H]2C[C@H](N=[N+]=[N-])[C@@H](CO)O2)c(=O)[nH]c1=O			IIIB	MT-2	0.06 µM
Cc1cn([C@H]2C=C[C@@H](CO)O2)c(=O)[nH]c1=O			LAI	MT-2	0.072 µM
Oc1cccc(-c2c3nc(c(-c4cccc(O)c4)c4ccc([nH]4)c(-c4cccc(O)c4)c4nc(c(-c5cccc(O)c5)c5ccc2[nH]5)C=C4)C=C3)c1			LAV	PBMC	5.4 µM
CCc1c(C)[nH]c(=O)c([N+](=O)[O-])c1Sc1cc(C)cc(C)c1			Isolated virion		<1 µM
CCCOCCCCCCCCCC(=O)O				H9	<100 µM
Nc1ccc(-c2c3nc(c(-c4ccc(N)cc4)c4ccc([nH]4)c(-c4ccc(N)cc4)c4nc(c(-c5ccc(N)cc5)c5ccc2[nH]5)C=C4)C=C3)cc1			LAV	PBMC	13.3 µM
COC(=O)N[C@H](C(=O)N[C@@H](Cc1ccccc1)[C@@H](O)CN(Cc1ccc(-c2ccccn2)cc1)NC(=O)[C@@H](NC(=O)OC)C(C)(C)C)C(C)(C)C			LAI	PBMC	0.007 µM
Oc1cc(O)cc(-c2c3nc(c(-c4cc(O)cc(O)c4)c4ccc([nH]4)c(-c4cc(O)cc(O)c4)c4nc(c(-c5cc(O)cc(O)c5)c5ccc2[nH]5)C=C4)C=C3)c1			LAV	PBMC	>100 µM
Cc1cn(C2CC(N=[N+]=[N-])C(COP(=O)(OC[C@H]3O[C@@H](n4cc(C)c(=O)[nH]c4=O)C[C@@H]3N=[N+]=[N-])C(=O)OCCSC(=O)C(C)(C)C)O2)c(=O)[nH]c1=O			LAI	CEM + CEM-SS	0.003 µM
CCc1nc2ccccn2c1C(=O)c1cccs1			IIIB	MT-4	13 µM
CCCCCCCCCC(=O)O				H9	>100 µM
O=c1[nH]cnc2c1ncn2[C@H]1CC[C@@H](CO)O1			LAV	PBMC	0.46 µM
Oc1ccc(-c2c3nc(c(-c4ccc(O)cc4)c4ccc([nH]4)c(-c4ccc(O)cc4)c4nc(c(-c5ccc(O)cc5)c5ccc2[nH]5)C=C4)C=C3)cc1			LAV	PBMC	0.8 µM
Cc1cn([C@H]2C[C@H](N=[N+]=[N-])[C@@H](CO)O2)c(=O)[nH]c1=O			CLADE B	PBMC	0.1 µM
Cc1cn([C@H]2C[C@H](N=[N+]=[N-])[C@@H](CO)O2)c(=O)[nH]c1=O			LAV	PBMC	0.002 µM
Cc1cccc(C)c1OCC(=O)N[C@@H](Cc1ccccc1)[C@@H](O)C[C@H](Cc1ccccc1)NC(=O)[C@H](C(C)C)N1CCCNC1=O			LAI	MT-2	0.004 µM
CCCc1cc(=O)oc2c3c(c4c(c12)OC(C)(C)C=C4)O[C@H](C)[C@@H](C)[C@@H]3O			CLADE E	PBMC	0.03 µM
CCc1nc2ccccn2c1C(=O)c1ccco1			LAI	CEM + CEM-SS	5 µM
CC(C)[C@H](NC(=O)OCc1ccccc1)C(=O)N[C@@H](Cc1ccccc1)[C@@H](O)CN(Cc1ccccc1)NC(=O)[C@@H](NC(=O)OCc1ccccc1)C(C)C			LAV	MT-2	<0.1 µM
COCCNC(=O)[C@@H](NC(=O)[C@H](Cc1ccc(OC)c(OC)c1OC)C[C@H](O)[C@H](Cc1ccccc1)NC(=O)OC(C)(C)C)C(C)C			MN	MT-2	0.006 µM
Cc1cn([C@H]2C[C@H](N=[N+]=[N-])[C@@H](COP(=O)(O)C(=O)OCCSC(=O)C(C)(C)C)O2)c(=O)[nH]c1=O			LAI	CEM + CEM-SS	2.1 µM
Cc1cn([C@H]2CC[C@@H](CO)O2)c(=O)[nH]c1=O			LAI	CEM + CEM TK-	>100 µM
COCCCCCCCCCCCC(=O)O				H9	<10 µM
Cc1cn([C@H]2C[C@H](N=[N+]=[N-])[C@@H](CO)O2)c(=O)[nH]c1=O			IIIB	PBMC	0.02 µM
Cc1cc(C)cc(C(=O)c2cc(Cl)ccc2OCCN2C(=O)NC(=O)C(C)C2C)c1	Y181C	pseudotyped			0.6 µM

For reference, 4 entries again:

CCc1nc2ccccn2c1C(=O)c1ccco1 ; strain: LAI ; cell line: CEM + CEM-SS ; value: 5 µM
Cc1cn([C@H]2C[C@H](N=[N+]=[N-])[C@@H](CO)O2)c(=O)[nH]c1=O ; strain: LAV ; cell line: PBMC ; value: 0.0039 µM
O=C1CCN(CCOc2ccc(Cl)cc2C(=O)c2cc(Cl)cc(Cl)c2)C(=O)N1 ; changes: Y181C ; setting: pseudotyped ; value: 0.75 µM
C[C@H](Cn1cnc2c(N)ncnc21)OCP(=O)(O)O ; strain: LAI ; cell line: PBMC ; value: 1.6 µM